{"source": "paper PMC12186487", "key": {"[1]": {"molecular_target": "T1, CarR (UniProt Q8RFU8)", "T1 sequence (looked up, limits assumed)": "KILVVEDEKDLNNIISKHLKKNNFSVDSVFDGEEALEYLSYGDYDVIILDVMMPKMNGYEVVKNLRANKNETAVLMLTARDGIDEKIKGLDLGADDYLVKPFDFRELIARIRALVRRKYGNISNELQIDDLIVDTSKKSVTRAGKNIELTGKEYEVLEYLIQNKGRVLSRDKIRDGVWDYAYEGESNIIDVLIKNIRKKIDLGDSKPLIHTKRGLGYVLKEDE", "assay": "EMSA", "conditions": "poly(dI-dC), EMSA: 1x LightShift binding buffer, 50 ng/uL poly(dI-dC), 2.5% glycerol, 5 mM MgCl2, 20 uL, 20 min, room temperature, 25 ng probe, recombinant protein, protein details: His6, label: Cy5 5' (forward primer), probe letters rebuilt from the primers and the genome"}, "[2]": {"molecular_target": "T1, CarR", "assay": "competition with a labelled probe", "conditions": "EMSA: 1x LightShift binding buffer, 50 ng/uL poly(dI-dC), 2.5% glycerol, 5 mM MgCl2, 20 uL, 20 min, room temperature, 25 ng probe, recombinant protein, protein details: His6"}, "[3]": {"molecular_target": "T1, CarR", "assay": "DNase I footprinting", "conditions": "7 uM CarR, 17 bp motif protected; footprinting: 200 ng probe, 30 min, 25 C; pH not stated; recombinant protein; protein details: His6; label: 6-FAM 5' (forward primer); probe letters rebuilt from the primers and the genome"}, "[4]": {"conditions": "competed by 100-fold unlabeled probe"}}, "note": "Construct, isoform or probe ends are uncertain for at least one entry. Tags and fusion partners may be left off the protein sequences shown.", "data": [{"sequence": "CACAGTGTACTATGACAGTTTTTAGTATAAATAATTTATTTATAAATCGTTTTATGTTAATATTATAATATAAAAATATCAAATATACTAGGAGGTAAATTATGGAAATGAAAAAATCTGGTTTAGG (double strand) [megL promoter probe]", "values": [{"measurement": "binding result", "setting": "[1]; [4]", "value": "binds"}]}, {"sequence": "CAGTTTTGATGTTAGAAAACTGTACTTTTTTTTATTAAAAAAATAATTTATAAAATATATATAAGAAAATTTTTTTATTATATTTTTAGATGTAACTATGAAATTATAATATAAAAAATTCTTTACTAAAAAACTAAAAAATAAATTTTAAAATAAATTTTAAATGTTCTATAAAAAAACAAAAAAAACTTATTTCTAAAAAATAATACGATTATACTAAAAATATATTTGACATTATAAATTTTTTAGATATAATGAAAATAAGAGGTAAGGGTATG (double strand) [kal (ldp) promoter probe]", "values": [{"measurement": "binding result", "setting": "[1]; [4]", "value": "binds"}]}, {"sequence": "CCATCCATTAATGTTTCCAGAGCTCCAAAATGCTCTCTCAACATTAATGGATGTCGCAGTAGCCTTATTAAAAATTATTATTTATTATAATCAATATATACAAAAGGAAGAGATATGTTATTTGAAGACAG (double strand) [pfruR 131 bp probe]", "values": [{"measurement": "binding result", "setting": "[1]", "value": "binds"}]}, {"sequence": "CCATCCATTAATGTTTCCAGAGCTCCAAAATGCTCTCTCAACATTAATGGATGTCGCAGTAGCCTTATTAAAAATTATTATTTATTATAATCAATATATACAAAAGGAAGAGATATGTTATTTGAAGACAG (double strand) [pfruR unlabeled competitor]", "values": [{"measurement": "binding result", "setting": "[2]; 100-fold excess unlabeled vs Cy5-pfruR, probe letters rebuilt from the primers and the genome", "value": "binds"}]}, {"sequence": "CGAGAGACAAAAGCATTGTAATATAGCATATAAAAATGAATATCAGATGAATATTTTTGATGACATAGTATAAAAAAAATGATATAATGAAAACAGTTATATAAATTATATATATATACAATAAATAATATAAAAAAGGGGAGGTTGAATTTATGAAAAAAGTTATTTTAACATTATTTGTTTTATTATCTATTGGAATATTTGCAAATGATGAG (double strand) [pradA 215 bp EMSA probe]", "values": [{"measurement": "binding result", "setting": "[1]", "value": "binds"}]}, {"sequence": "GTTTCTTTACTCATTCTAAATTCCTCCTTAAAAATTAATAAACAAAAAATAATCAATTTTGTTCTATTTATATTTTATATTTTATCATATTTTTTTTATATGTCAATGTAAAAATTTTTTTATTTTTTCAATACAATATGTAGTATAATCGAAAAAAATATAATAAATTATTTTTTTATATTAATATTTTTTTTATTATTAATTATATAAATTATTAATGTTTTTTTATTCATTTTATTTC (double strand) [gluD (gdhA) promoter probe]", "values": [{"measurement": "binding result", "setting": "[1]; [4]", "value": "binds"}]}, {"sequence": "TATAAGGATTGACTTTTGTAAGAAACAGGAGTTAGTTCTTTTTAATTTATTAAAAAAATACATTATAAATAAATATAATATCTATAAATAGATTATTTTAATCTAAAAATATACTAATAATTTTATATTTCGAGAGACAAAAGCATTGTAATATAGCATATAAAAATGAATATCAGATGAATATTTTTGATGACATAGTATAAAAAAAATGATATAATGAAAACAGTTATATAAATTATATATATATACAATAAATAATATAAAAAAGGGGAGGTTGAATTTATGAAAAAAGTTATTTTAACATTATTTGTTTTATTATCTATTGGAATATTTGCAAATGATGAG (double strand) [pradA footprinting probe]", "values": [{"measurement": "binding result", "setting": "[3]", "value": "binds"}]}, {"sequence": "TCAGATGAATATTTTTGATGACATAGTATAAAAAAAATGATATAATGAAAACAGTTATATAAATTATATATATATACAATAAATAATA (double strand) [pradA BS P1]", "values": [{"measurement": "binding result", "setting": "[2]; 100-fold excess unlabeled vs Cy5-pradA", "value": "binds"}]}]}
